# US20040086535A1, “Novel antiviral acitivities of primate theta defensins and mammalian cathelicidins” (priority 2001, published 2004)
# Test system: enveloped virus
# Assay: Inhibition of enveloped virus infectivity by shortened form
substance,measurement,value
NKLRRIIRKIIHIIKKYG-NH2 [OV-2.3],viral replication inhibition (qualitative),Significant levels of viral replication inhibition were detected
